Values from PubChem BioAssay AID624099 (ICCB-Longwood, 2012)

Purpose: 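Knock-downs relieving repression by E2 of an HPV18 LCR luciferase reporter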 (primary screen)
Cells: human C33A cervical carcinoma cells (HPV-negative) stably expressing BPV1 E2 and an HPV18 LCR luciferase reporter
Reagent: siRNA pool against human genes, 40 nM
Duration: 72 h
Read-out: 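Per-well luciferase luminescence, z-scored on each plate against the plate mean and SD with control wells left out, then averaged across three replicate plates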
Reading the numbers: mean z-score and z-score: higher = stronger reporter signal, weaker E2 silencing
Call rule: 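Hit if mean z-score reaches 2 and two or more of three replicate z-scores also reach 2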
This is one part, drawn at random, of about 21,000 reagents. In the full data, 497 (2.4%) are marked active. 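Higher z means weaker E2 silencing; only reporter increases were scored, and knock-downs that hurt cell survival may mask genuine repressor factors.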 A number with no mark means an inactive call. Reagent sequences are not shown.

no.	gene	PubChem SID	mean z-score	z-score, replicate A	z-score, replicate B	z-score, replicate C
1	CLCC1 (chloride channel CLIC like 1)	SID134314675	-0.77	-0.73	-0.83	-0.76
2	RFTN1 (raftlin, lipid raft linker 1)	SID134325700	-1.7	-1.62	-1.83	-1.64
3	GPRACR (GPR107 adjacent cis regulating lncRNA)	SID134329663	-0.35	-0.62	0	-0.44
4	GTF2H2 (general transcription factor IIH subunit 2)	SID134315640	0.33	0.32	0.33	0.34
5	FLJ31132 (retired record)	SID134329870	0.57	0.14	0.64	0.93
6	ARL13A (ARF like GTPase 13A)	SID134329148	0.84	0.66	0.95	0.91
7	RRP7A (ribosomal RNA processing 7 homolog A)	SID134320759	-0.49	-0.63	-0.54	-0.3
8	AKAP3 (A-kinase anchoring protein 3)	SID56479231	-0.52	-0.46	-0.51	-0.6
9	HARBI1 (harbinger transposase derived 1)	SID134322170	0.54	0.4	0.3	0.91
10	SOWAHB (sosondowah ankyrin repeat domain family member B)	SID134325894	-0.19	0.05	-0.49	-0.13
11	LOC81787 (retired record)	SID134328613	-0.46	-0.61	-0.53	-0.23
12	TRIM77 (tripartite motif containing 77)	SID134328296	-0.81	-0.77	-1.01	-0.65
13	LOC402367 (retired record)	SID134328059	0.36	0.67	-0.17	0.57
14	ZNF236 (zinc finger protein 236)	SID134317046	-0.33	-0.24	-0.38	-0.38
15	ADCY3 (adenylate cyclase 3)	SID134311975	-0.77	-0.31	-1.2	-0.79
16	ZBED11 (zinc finger BED-type containing 11)	SID134325996	1.88	1.81	1.98	1.87
17	PRR35 (proline rich 35)	SID134320062	0.21	0.17	0.12	0.35
18	SURF4 (surfeit 4)	SID134315118	-0.49	-0.39	-0.77	-0.32
19	LOC348162 (retired record)	SID134325512	0.1	0	0.25	0.06
20	NOB1 (NIN1 (RPN12) binding protein 1 homolog)	SID134324274	-0.2	-0.19	-0.17	-0.24
21	ATF7IP2 (activating transcription factor 7 interacting protein 2)	SID134318676	1.95	1.8	1.99	2.08
22	IL10RA (interleukin 10 receptor subunit alpha)	SID134312860	0.5	0.52	0.5	0.47
23	FFAR2 (free fatty acid receptor 2)	SID134311016	1.01	1.3	0.81	0.93
24	TOB2 (transducer of ERBB2, 2)	SID134323222	-0.21	-0.08	-0.09	-0.47
25	EPN2 (epsin 2)	SID134310595	1.31	1.16	1.18	1.58
26	TSPAN7 (tetraspanin 7)	SID134324911	1.45	1.16	1.82	1.38
27	BICRA	SID134324398	-1.56	-1.53	-1.39	-1.76

The list goes on; the last 7 above are carried over.
no.	gene	PubChem SID	mean z-score	z-score, replicate A	z-score, replicate B	z-score, replicate C
21	ATF7IP2 (activating transcription factor 7 interacting protein 2)	SID134318676	1.95	1.8	1.99	2.08
22	IL10RA (interleukin 10 receptor subunit alpha)	SID134312860	0.5	0.52	0.5	0.47
23	FFAR2 (free fatty acid receptor 2)	SID134311016	1.01	1.3	0.81	0.93
24	TOB2 (transducer of ERBB2, 2)	SID134323222	-0.21	-0.08	-0.09	-0.47
25	EPN2 (epsin 2)	SID134310595	1.31	1.16	1.18	1.58
26	TSPAN7 (tetraspanin 7)	SID134324911	1.45	1.16	1.82	1.38
27	BICRA	SID134324398	-1.56	-1.53	-1.39	-1.76
28	CHRNE (cholinergic receptor nicotinic epsilon subunit)	SID134311566	1.14	1.02	1.11	1.28
29	SH2D5 (SH2 domain containing 5)	SID134327051	-1.34	-1.19	-1.57	-1.25
30	LGALS14 (galectin 14)	SID134324789	1.59	1.28	1.77	1.7
31	DAPK2 (death associated protein kinase 2)	SID56478798	-0.48	-0.19	-0.9	-0.34
32	RASA4CP (RAS p21 protein activator 4C, pseudogene)	SID134327754	-0.88	-0.99	-0.74	-0.9
33	RASA4CP (RAS p21 protein activator 4C, pseudogene)	SID134327851	-1.15	-1.29	-0.9	-1.28
34	FCF1 (FCF1 rRNA-processing protein)	SID134324602	0.89	0.9	1.24	0.53
35	OR8G1 (olfactory receptor family 8 subfamily G member 1)	SID134329730	0.58	0.59	0.63	0.51
36	DISP2 (dispatched RND transporter family member 2)	SID134317939	-0.89	-0.69	-0.95	-1.02
37	GIP (gastric inhibitory polypeptide)	SID134323546	0.07	-0.02	0.04	0.18
38	FBXW10B (F-box and WD repeat domain containing 10B)	SID134329458	0.61	0.62	0.33	0.87
39	RGS8 (regulator of G protein signaling 8)	SID134313112	0.07	0.24	-0.14	0.1
40	UBE2Z (ubiquitin conjugating enzyme E2 Z)	SID134313463	-2.79	-2.95	-2.69	-2.73
41	MT1L (metallothionein 1L (pseudogene))	SID134315326	-0.23	-0.3	-0.05	-0.33
42	PTDSS2 (phosphatidylserine synthase 2)	SID134313800	1.38	1.3	1.27	1.58
43	CLIC2 (CLIC family member 2)	SID134317225	-0.21	-0.12	-0.2	-0.31
44	LILRP2 (leukocyte immunoglobulin-like receptor pseudogene 2)	SID134318495	-0.8	-0.71	-0.93	-0.76
45	SLC5A12	SID134312415	1	0.7	0.79	1.52
46	DNASE1L3 (deoxyribonuclease 1L3)	SID134316955	0.42	0.26	0.71	0.29
47	ASAP3 (ArfGAP with SH3 domain, ankyrin repeat and PH domain 3)	SID134321066	1.54	1.47	1.57	1.57
48	PELI1 (pellino E3 ubiquitin protein ligase 1)	SID134318021	0.55	0.39	0.66	0.61
49	WDR43 (WD repeat domain 43)	SID134325469	-1.89	-1.78	-1.98	-1.9
50	COG1 (component of oligomeric golgi complex 1)	SID134317539	0.11	-0.04	0.32	0.05
51	GNLY (granulysin)	SID134316758	0.76	0.69	0.46	1.13
52	KANSL3 (KAT8 regulatory NSL complex subunit 3)	SID134320900	0.44	0.23	0.39	0.69
53	GYG1 (glycogenin 1)	SID134311931	1.32	1.42	1.1	1.44
54	TM6SF2 (transmembrane 6 superfamily member 2)	SID134329775	1.13	0.99	0.86	1.54
55	SEMA3D (semaphorin 3D)	SID134320950	2.12 (active)	2.17	2.31	1.86
56	RASD1 (ras related dexamethasone induced 1)	SID134314441	-0.2	-0.49	-0.25	0.16
57	HSF2BP (heat shock transcription factor 2 binding protein)	SID134316621	1.11	1.21	0.87	1.24
